Measurements from patent publication US9119853B2, “Sanglifehrin based compounds” (priority 2010, dated 2015).

Test system: HCV genotype 1b I389luc-ubi-neo/NS3-3'/5.1 replicon in Huh5.2 cells
Assay: In vitro replicon assay for HCV antiviral activity (luciferase)
Assay type: cell-based, Hepatitis C Virus
Conditions: Huh5.2 replicon

| Structure (SMILES) | Selectivity index (CC50/EC50) |
| --- | --- |
| CC(=O)CC[C@H]1C(=O)N[C@@H](C(C)C)C(=O)N[C@@H](Cc2cccc(O)c2)C(=O)N2CCCC(N2)C(=O)O[C@H](/C(C)=C/C=C/C(=O)Nc2ccccn2)C/C=C/C=C/[C@H](O)[C@H](C)[C@H]1O (stereo partly drawn) [compound 48] | 238 |
| C=CCNC(=O)/C=C/C=C(\C)[C@@H]1C/C=C/C=C/[C@H](O)[C@H](C)[C@@H](O)[C@@H](CCC(C)=O)C(=O)N[C@@H](C(C)C)C(=O)N[C@@H](Cc2cccc(O)c2)C(=O)N2CCCC(N2)C(=O)O1 (stereo partly drawn) [compound 25] | 30 |
| CC(=O)CC[C@H]1C(=O)N[C@@H](C(C)C)C(=O)N[C@@H](Cc2cccc(O)c2)C(=O)N2CCCC(N2)C(=O)O[C@H](/C(C)=C/C=C/C(=O)N(CC(C)C)CC(C)C)C/C=C/C=C/[C@H](O)[C@H](C)[C@H]1O (stereo partly drawn) [compound 32] | 6.9 |
